# Results from PubChem BioAssay AID559 (PCMD, 2006).
# Protein sequences, listed by entry. Tags and fused reporters are not part of them.
# UniProt P0A8V2, whole entry: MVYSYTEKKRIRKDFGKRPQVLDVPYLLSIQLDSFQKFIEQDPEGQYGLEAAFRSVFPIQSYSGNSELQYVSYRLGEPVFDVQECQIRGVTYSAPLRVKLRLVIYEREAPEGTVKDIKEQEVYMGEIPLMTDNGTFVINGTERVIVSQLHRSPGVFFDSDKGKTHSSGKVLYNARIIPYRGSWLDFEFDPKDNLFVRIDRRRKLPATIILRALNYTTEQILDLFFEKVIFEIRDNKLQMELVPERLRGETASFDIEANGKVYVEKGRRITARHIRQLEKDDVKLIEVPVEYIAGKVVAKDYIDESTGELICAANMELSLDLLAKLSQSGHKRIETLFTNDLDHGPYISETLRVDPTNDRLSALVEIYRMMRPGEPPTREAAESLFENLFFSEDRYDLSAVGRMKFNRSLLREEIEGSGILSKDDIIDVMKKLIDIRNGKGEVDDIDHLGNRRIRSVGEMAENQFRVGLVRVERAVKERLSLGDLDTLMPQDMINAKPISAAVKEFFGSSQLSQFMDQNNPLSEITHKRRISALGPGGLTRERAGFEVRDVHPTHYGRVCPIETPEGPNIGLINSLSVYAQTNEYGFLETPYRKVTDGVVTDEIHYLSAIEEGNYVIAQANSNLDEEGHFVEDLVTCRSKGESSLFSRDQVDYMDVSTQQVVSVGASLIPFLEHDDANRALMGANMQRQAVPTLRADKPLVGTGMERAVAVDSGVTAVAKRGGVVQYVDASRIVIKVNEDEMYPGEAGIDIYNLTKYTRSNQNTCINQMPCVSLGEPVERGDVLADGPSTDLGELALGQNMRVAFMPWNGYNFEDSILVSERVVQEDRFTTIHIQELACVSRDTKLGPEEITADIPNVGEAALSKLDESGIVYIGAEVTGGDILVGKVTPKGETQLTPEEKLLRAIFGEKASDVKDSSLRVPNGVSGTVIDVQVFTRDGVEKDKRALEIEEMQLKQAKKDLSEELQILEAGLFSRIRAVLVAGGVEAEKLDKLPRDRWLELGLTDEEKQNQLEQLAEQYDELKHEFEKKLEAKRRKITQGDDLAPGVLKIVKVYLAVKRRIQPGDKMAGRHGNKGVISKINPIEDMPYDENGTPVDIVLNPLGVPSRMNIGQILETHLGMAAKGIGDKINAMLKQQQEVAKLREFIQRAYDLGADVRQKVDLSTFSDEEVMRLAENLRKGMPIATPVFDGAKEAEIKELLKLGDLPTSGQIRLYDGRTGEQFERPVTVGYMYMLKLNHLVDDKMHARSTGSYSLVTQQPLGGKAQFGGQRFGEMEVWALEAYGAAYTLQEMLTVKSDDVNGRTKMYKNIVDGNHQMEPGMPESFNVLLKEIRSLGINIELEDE
# The list shows a part of the results, in another mix than the full data. The source made the active and inactive calls. Rule as the data show it: active = inhibition above about 20%; inactive = the rest.
# Target: DNA-directed RNA polymerase subunit beta (Escherichia coli (strain K12)) (UniProt P0A8V2)
# Assay: bacterial RNA polymerase transcription inhibition – biochemical (AID 559);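 also: 0% = enzyme without compound and 100% = no enzyme blank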
# Settings: E. coli RNA polymerase, fluorescence transcription assay; hits give high values;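 tested at 10 µM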
row,Structure (SMILES),inhibition
1,Cc1nc2ccc3ccccc3c2s1.O=[N+]([O-])c1cc([N+](=O)[O-])c(O)c([N+](=O)[O-])c1,inactive: 7.5%
2,Cc1ccc(C)c(NP(C)(=O)Oc2ccccc2)c1 (stereo not drawn),inactive: -2.81%
3,Cc1ccc(NP(C)(=O)Oc2ccccc2)c(C)c1 (stereo not drawn),inactive: 5.2%
4,COc1ccccc1OP(C)(=O)Nc1ccc(C)cc1 (stereo not drawn),inactive: -5.01%
5,CP(=S)(Nn1cnnc1)Oc1ccccc1 (stereo not drawn),inactive: 8.76%
6,CP(=O)(NC(=O)Nc1ccccc1)Oc1ccccc1 (stereo not drawn),inactive: -4.45%
7,CCOP(C)(=S)SCC(=O)NC(C)C(=O)O (stereo not drawn),inactive: -0.21%
8,CCN(CC)CC(O)COC(=O)C(O)(c1ccccc1)C1CCCCC1 (stereo not drawn),inactive: 7.67%
9,CP(=O)(Oc1ccccc1)N1CCOC1=O (stereo not drawn),inactive: 6.15%
10,COc1ccccc1OP(C)(=O)Nc1c(C)n(C)n(-c2ccccc2)c1=O (stereo not drawn),inactive: 9.87%
11,COc1ccccc1OP(C)(=O)Nc1ccc(C)c(C)c1 (stereo not drawn),inactive: 8.42%
12,Cc1nc2ccc3ccccc3c2o1.O=[N+]([O-])c1cc([N+](=O)[O-])c(O)c([N+](=O)[O-])c1,inactive: -9.72%
13,CP(=O)(Nc1ccccn1)Oc1ccccc1 (stereo not drawn),inactive: 8.42%
14,CP(=O)(Nc1ccccc1F)Oc1ccccc1 (stereo not drawn),inactive: 3%
15,CN(C)CCOC(=O)C(O)(c1ccccc1)C1CCCCC1 (stereo not drawn),inactive: 2.66%
16,CCOP(C)(=S)SCC(=O)NC(C)(CC)C(=O)O (stereo not drawn),inactive: 10.7%
17,CP(=O)(Nc1ccc2c(c1)OCCO2)Oc1ccccc1 (stereo not drawn),inactive: 15.5%
18,Cc1ccccc1NP(C)(=O)Nc1ccccc1C,inactive: 5.54%
